Earlier results, collected in paper PMC5667636 (Antiviral Research, 2017).

How the values were obtained:
[1] = test system: neuraminidase (NA) of A(H1N1)pdm09 viruses; conditions: cited from earlier work
[2] = test system: neuraminidase (NA) of B/Victoria-lineage viruses; conditions: NA K152M; ref Hurt et al., 2016; cited from earlier work

| SMILES | inhibition phenotype (NI/RI/HRI) ([1]; footnote c to Table S4, NA AAS and subtype not named at the place, ref Samson et al, 2014) | inhibition phenotype (NI/RI/HRI) ([1]; footnote c to Table S4, NA AAS and subtype not named at the place, ref Takashita et al, 2015b) | inhibition phenotype (NI/RI/HRI) [2] | inhibition phenotype (NI/RI/HRI) ([1]; footnote d to Table S4, NA AAS and subtype not named at the place, ref Meijer et al, 2014) |
| --- | --- | --- | --- | --- |
| CCOC(=O)C1=C[C@@H](OC(CC)CC)[C@H](NC(C)=O)[C@@H](N)C1 [Oseltamivir, oseltamivir] | HRI (highly reduced inhibition (HRI) when increases of more than 100-fold are detected) | RI (reduced inhibition (RI) when 10- to 100-fold increases are observed) | RI (for type B viruses the corresponding fold increases are <5, 5–50 and >50 respectively) |  |
| CC(=O)N[C@H]1[C@H]([C@H](O)[C@H](O)CO)OC(C(=O)O)=C[C@@H]1N=C(N)N [Zanamivir, zanamivir] |  |  |  | HRI (highly reduced inhibition (HRI) when increases of more than 100-fold are detected) |

Read-outs that look alike come from different tables or passages of the source.
